In PMC11109247 (Nature Communications, 2024):

Biological target: full-length NiVBD G displayed on the surface of 293T cells (Nipah virus, Bangladesh (GenBank …, UniProt Q4VCP5, strain))
Assay: cell-based or functional assay

B1: 1E5 (chimeric macaque-human IgG1 antibody) (antibody, V domains shown)
VH: QVQLQESGPGVVKPSETLSLTCAVSGGSISDTYRWSWIRQPPGKGLEWIGYIYGSATSTYYNPSLSSRVTISKDMSKNQFSLNLNSVTAADTAVYYCARDYQYYYSGSYPTPHNWFDVWGPGVLVTVSS
VL: DIQMTQSPSSLSASVGDRVTITCRASQGIIDYLSWYQQKPGKAPKLLISTASNLESGVPSRFSGSGSGTEFTLTISSLQPEDFATYSCLQGYTTPYTFGQGTKVEIK
With B1 the “Live virus neutralization IC50 (plaque reduction), NiVBD” value was 0.03 µg/mL.
